From US20150223453A1, “QUATERNARY AMMONIUM ACID COMPOUNDS AND COMPOSITIONS FOR DISINFECTION, SANITIZATION, AND CLEANING” (LONZA INC., priority 2014, published 2015)

experiment: Corrosion on Steel; conditions: 1000 ppm of active, steel submerged for 24 hours

| Compound | % Change | Total Weight Difference |
| --- | --- | --- |
| CCCCCCCCCC[N+](C)(C)CCCCCCCCCC.[Cl-] [Dialkyl quaternary ammonium chloride] | 0.05835% | 0.0104 g |
| Alkyl dimethyl benzyl ammonium chloride | 0.05814% | 0.0105 g |
| Dialkyl quaternary ammonium acetate | 0.000001789% | 0.0032 g |
